Values of other authors, collected in US4342772A, “β-Lactam compounds, antibacterial compositions thereof and method of use” (priority 1979, dated 1982).

How the values were obtained:
[1] = tested on: gram-positive and gram-negative organisms; details: in words; "with a few exceptions"; background; cited from earlier work
[2] = tested on: β-lactamase producing bacteria; details: in combination with selected penicillins and cephalosporins; background; cited from earlier work
[3] = tested on: β-lactamases; details: in words; background; cited from earlier work

Which “Antibacterial activity against most gram-positive and gram-negative organisms” value [1] does the source give for CC1(C)S[C@@H]2[C@H](Br)C(=O)N2[C@H]1C(=O)O here?
Its value is “only weak antibacterial activity”.

What about the “Synergy against β-lactamase producing bacteria” value [2] of the same molecule?
Its value is “act synergistically”.

What about the “Inhibition of a wide range of β-lactamases” value [3] of the same molecule?
The value was “powerful inhibitors”.
